Measurements reported in patent publication US4859611A (priority 1986, dated 1989).

System: IgM antibody for AFB1
Details: AF-FAPyr relative to AF-N^7 -Gua

COc1cc2c(c3oc(=O)c4c(c13)CCC4=O)C1C(O2)OC(N(C=O)c2c(N)nc(N)[nH]c2=O)C1O (stereo not shown)
relative sensitivity of IgM antibody in detecting AF-FAPyr adduct versus AF-N^7 -Gua adduct: approximately four times more sensitive
